Measured values from several laboratories, pooled; numbers as filed in NIAID ChemDB.

All rows: growth or infection tests; species: Haemophilus influenzae

MIC50, MIC90 and the like: level of inhibition, or share of isolates inhibited. Rows are shuffled and stem from different studies.

{"structure": "CC[C@H]1OC(=O)[C@H](C)C(=O)[C@H](C)[C@@H](O[C@@H]2O[C@H](C)C[C@H](N(C)C)[C@H]2O)[C@@]2(C)C[C@@H](C)C(=NC(C)=O)[C@H](C)C(OC/C(=C\\C#Cc3cccnc3)CO2)[C@]1(C)O", "strain": "33929 (ampicillin-resistant)", "read-out": "MIC", "value": "4 µg/mL"}
{"structure": "CC(=O)NC[C@H]1CN(c2ccc(-c3cc(C#N)cs3)c(F)c2)C(=O)O1", "strain": "UC 30063", "read-out": "MIC", "value": ">64 µg/mL"}
{"structure": "CC[C@H]1OC(=O)[C@@](C)(F)C(=O)[C@H](C)[C@@H](O[C@@H]2O[C@H](C)C[C@H](N(C)C)[C@H]2O)[C@@]2(C)C[C@@H](C)C(=NC(C)=O)[C@H](C)[C@@H](OC/C(=N\\OCc3ccc(C(N)=O)s3)CO2)[C@]1(C)O", "strain": "33929 (ampicillin-resistant)", "read-out": "MIC", "value": "4 µg/mL"}
{"structure": "CC(=O)NC[C@H]1CN(c2ccc(-c3cc(CO)on3)c(F)c2)C(=O)O1", "strain": "UC 30063", "read-out": "MIC", "value": "8 µg/mL"}
{"structure": "CCC(=O)N=C1[C@H](C)C[C@@]2(C)OC/C(=C/C=C/c3ccccc3)COC([C@H]1C)[C@](C)(O)[C@@H](CC)OC(=O)[C@H](C)C(=O)[C@H](C)[C@H]2O[C@@H]1O[C@H](C)C[C@H](N(C)C)[C@H]1O", "strain": "33929 (ampicillin-resistant)", "read-out": "MIC", "value": "32 µg/mL"}
{"structure": "COC(=O)n1ccc(-c2ccc(N3C[C@H](CNC(C)=O)OC3=O)cc2F)n1", "strain": "UC 30063", "read-out": "MIC", "value": ">64 µg/mL"}
{"structure": "CO/N=C(/C(=O)N[C@@H]1C(=O)N2C(C(=O)O)=C(COC(N)=O)CS[C@H]12)c1ccco1", "strain": "434 strains", "read-out": "MIC50", "value": "0.5 µg/mL"}
{"structure": "O=CN(O)CCCP(=O)(O)O", "strain": "ATCC31517", "read-out": "MIC", "value": "≤1 µg/mL"}
{"structure": "CC[C@H]1OC(=O)[C@H](C)C(=O)[C@H](C)[C@@H](O[C@@H]2O[C@H](C)C[C@H](N(C)C)[C@H]2O)[C@@]2(C)C[C@@H](C)C(=NC(C)=O)[C@H](C)[C@@H](OC/C(=N/OCc3ccc(-c4cccc(N)n4)s3)CO2)[C@]1(C)O", "strain": "33929 (ampicillin-resistant)", "read-out": "MIC", "value": "16 µg/mL"}
{"structure": "CC(C)(C)[C@H](NC(=O)C(CC1CCCC1)CN(O)C=O)C(=O)N1CCN(Cc2nccs2)CC1", "strain": "Isolate 31517", "read-out": "MIC", "value": "8 µg/mL"}
{"structure": "C=C1COC2[C@@H](C)C(=NC(C)=O)[C@H](C)C[C@@](C)(OC1)[C@H](O[C@@H]1O[C@H](C)C[C@H](N(C)C)[C@H]1O)[C@@H](C)C(=O)[C@@H](C)C(=O)O[C@H](CC)[C@@]2(C)O", "strain": "33929 (ampicillin-resistant)", "read-out": "MIC", "value": ">64 µg/mL"}
{"structure": "CC[C@H]1OC(=O)C[C@@H](O)[C@H](C)[C@@H](O[C@@H]2O[C@H](C)[C@@H](O)[C@H](N(C)C)[C@H]2O)C(C=O)C[C@@H](C)C(=O)/C=C/C(C)=C/[C@@H]1COC", "strain": "33929 (ampicillin-resistant)", "read-out": "MIC", "value": "2 µg/mL"}
{"structure": "CC(=O)NC[C@H]1CN(c2ccc(-c3ccsc3)c(F)c2)C(=O)O1", "strain": "UC 30063", "read-out": "MIC", "value": "8 µg/mL"}
{"structure": "CC[C@H]1OC(=O)C[C@@H](O)[C@H](C)[C@@H](O[C@@H]2O[C@H](C)[C@@H](O)[C@H](N(C)C)[C@H]2O)C(C=O)C[C@@H](C)C(=O)/C=C/C(C)=C/[C@@H]1COCOC", "strain": "33929 (ampicillin-resistant)", "read-out": "MIC", "value": "2 µg/mL"}
{"structure": "CC[C@H]1OC(=O)[C@H](C)C(=O)[C@H](C)[C@@H](O[C@@H]2O[C@H](C)C[C@H](N(C)C)[C@H]2O)[C@](C)(OC)C[C@@H](C)C(=O)[C@H](C)[C@H]2N(CCCCn3cnc(-c4cccnc4)c3)C(=O)O[C@]12C", "strain": "25 strains", "read-out": "MIC90", "value": "8 µg/mL"}
{"structure": "COCC1=C(C(=O)O)N2C(=O)C(NC(=O)/C(=N/OC)c3csc(N)n3)C2SC1", "strain": "434 strains", "read-out": "MIC50", "value": "≤0.06 µg/mL"}
{"structure": "CC(=O)NC[C@H]1CN(c2ccc(-c3nsc(C(N)=O)n3)c(F)c2)C(=O)O1", "strain": "UC 30063", "read-out": "MIC", "value": ">16 µg/mL"}
{"structure": "C=CCNC(=O)OC[C@H]1/C=C(C)/C=C/C(=O)[C@H](C)CC(C=O)[C@H](O[C@@H]2O[C@H](C)[C@@H](O)[C@H](N(C)C)[C@H]2O)[C@@H](C)[C@H](O)CC(=O)O[C@@H]1CC", "strain": "33929 (ampicillin-resistant)", "read-out": "MIC", "value": "1 µg/mL"}
{"structure": "CCOC(=O)c1nc(-c2ccc(N3C[C@H](CNC(C)=O)OC3=O)cc2F)ns1", "strain": "UC 30063", "read-out": "MIC", "value": ">16 µg/mL"}
{"structure": "C=C1COC2[C@@H](C)/C(=N/OCOC)[C@H](C)C[C@@](C)(OC1)[C@H](O[C@@H]1O[C@H](C)C[C@H](N(C)C)[C@H]1O)[C@@H](C)C(=O)[C@@H](C)C(=O)O[C@H](CC)[C@@]2(C)O", "strain": "33929 (ampicillin-resistant)", "read-out": "MIC", "value": ">64 µg/mL"}
{"structure": "C=CCOC[C@H]1/C=C(C)/C=C/C(=O)[C@H](C)CC(C=O)[C@H](O[C@@H]2O[C@H](C)[C@@H](O)[C@H](N(C)C)[C@H]2O)[C@@H](C)[C@H](O)CC(=O)O[C@@H]1CC", "strain": "33929 (ampicillin-resistant)", "read-out": "MIC", "value": "1 µg/mL"}
{"structure": "CC1(C)S[C@@H]2[C@H](NC(=O)[C@H](N)c3ccc(O)cc3)C(=O)N2[C@H]1C(=O)O", "strain": "434 strains", "read-out": "MIC90", "value": "2 µg/mL"}
{"structure": "CC[C@H]1OC(=O)[C@H](C)C(=O)[C@H](C)[C@@H](O[C@@H]2O[C@H](C)C[C@H](N(C)C)[C@H]2O)[C@@]2(C)C[C@@H](C)C(=NC(C)=O)[C@H](C)[C@@H](OC/C(=N\\OCc3ccc(-c4cccc(N)n4)s3)CO2)[C@]1(C)O", "strain": "33929 (ampicillin-resistant)", "read-out": "MIC", "value": "4 µg/mL"}
{"structure": "CC(=O)NC[C@H]1CN(c2ccc(-c3cnn(C(C)=O)c3)c(F)c2)C(=O)O1", "strain": "UC 30063", "read-out": "MIC", "value": "16 µg/mL"}
{"structure": "CC[C@H]1OC(=O)[C@H](C)C(=O)[C@H](C)[C@@H](O[C@@H]2O[C@H](C)C[C@H](N(C)C)[C@H]2O)[C@@]2(C)C[C@@H](C)C(=NC(C)=O)[C@H](C)[C@@H](OC/C(=N\\OCc3ccc(C(N)=O)s3)CO2)[C@]1(C)O", "strain": "33929 (ampicillin-resistant)", "read-out": "MIC", "value": "4 µg/mL"}
{"structure": "CC[C@H]1OC(=O)[C@H](C)C(=O)[C@H](C)[C@@H](O[C@@H]2O[C@H](C)C[C@H](N(C)C)[C@H]2O)[C@@]2(C)C[C@@H](C)C(=NC(C)=O)[C@H](C)C(OC/C(=N\\OCC#Cc3cccc(N)n3)CO2)[C@]1(C)O", "strain": "25 strains", "read-out": "MIC90", "value": ">32 µg/mL"}
{"structure": "CC[C@H]1OC(=O)[C@@](C)(F)C(=O)[C@H](C)[C@@H](O[C@@H]2O[C@H](C)C[C@H](N(C)C)[C@H]2O)[C@@]2(C)C[C@@H](C)C(=NC(C)=O)[C@H](C)[C@@H](OC/C(=N\\OCc3ccc(-c4cccc(N)n4)s3)CO2)[C@]1(C)O", "strain": "33929 (ampicillin-resistant)", "read-out": "MIC", "value": "4 µg/mL"}